Some results are limits rather than exact numbers.

These results are taken from US20100254942A1, “HEPATITIS C ANTIVIRAL COMPOSITIONS AND METHODS” (BIOTRON LIMITED, priority 2007, published 2010).

The data set deals with bovine viral diarrhea virus (BVDV) strain NADL. Briefly: BVDV CPE-inhibition assay in MDBK cells. Type of data set: cell-based. The conditions noted are these: TC50 divided by IC50. How it is done:
The antiviral evaluation of selected BIT compounds against BVDV was outsourced to Southern Research Institute (SRI), Fredrick Md. USA. A simple cytoprotection format is used in which the antiviral efficacy of the compounds is assessed by their ability to reduce the cytopathic effect of BVDV infection in Madin-Darby bovine kidney cells (Buckwold et al., 2003)
A virus-induced cytopathogenic effects (CPE)-inhibition assay procedure was employed to evaluate compounds for antiviral activity against bovine viral diarrhea virus (BVDV) strain NADL, in Madin-Darby bovine kidney (MDBK) cells passaged in T-75 flasks (1, 2). Antiviral assays were designed to test six half-log concentrations of each compound in triplicate against the challenge virus. Cell controls (CC) containing medium alone, virus-infected cell controls (VC) containing medium and virus, drug cytotoxicity controls containing medium and each drug concentration, reagent controls containing culture medium only (no cells), and drug colorimetric controls containing drug and medium (no cells) are run simultaneously with the test samples. Human interferon-α 2b was used as a positive control compound. On the day preceding the assay, the cells were trypsinized, pelleted, counted and resuspended at 1×10^4/well in tissue culture medium in 96-well flat bottom tissue culture plates in a volume of 100 μl per well. One day following plating of cells, the wells were washed and the medium was replaced with complete medium (2% serum) containing various concentrations of test compound diluted in medium in a half-log series. A pre-titered aliquot of virus was removed from the freezer (−80° C.) just before each experiment. The virus was diluted into tissue culture medium such that the amount of virus added to each well would give complete cell killing at 6-7 days post-infection. The plates were incubated at 37° C. in a humidified atmosphere containing 5% CO2 until maximum CPE is observed in the untreated virus control cultures (˜day 7) Inhibition of CPE by the compound was determined using Cell Titer 96 (Promega). A colorimetric method for determining the number of viable cells was used. A computer program was utilized to calculate the percent of CPE reduction of the virus-infected wells and the percentage cell viability of uninfected drug control wells. […] A therapeutic (selectivity) index (TI50) for each active compound was determined by dividing the TC50 by the IC50.
Drug cytotoxicity was measured separately in uninfected cells. Eleven BIT compounds were tested in the first experiment in which the compounds were added to the cells just prior to infection and were maintained throughout the entire experiment. Two of them, BIT225 and BIT314 returned sub-micromolar IC50 values (see Table 2 below).
`Cn1cc(-c2cccc3cc(C(=O)NC(=N)N)ccc23)cn1` [BIT225, 5-(1-methylpyrazol-4-yl)2-naphthoylguanidine] gave an AI of 21.7. In the case of IFN-α it was above 24.3; in that of `CC(=O)O.Cn1cc(-c2ccc3cc(C(=O)NC(=N)N)ccc3c2)cn1` [BIT314, (6-(1-methylpryazol-4-yl)-2-napthoyl)guanidinium acetate], 54.2. For `COc1ccc2cc(C(=O)NC(=N)N)ccc2c1Br` [BIT223, 5-bromo-6-methoxy-2-napthoylguanidine], the AI is reported as above 6.85.
